PubChem BioAssay AID1259414 | Drosophila RNAi Screening Center, 2018
The screen tested about 24,000 reagents; below is an unselected part of those that have a named target and a result. Over the whole deposit, about 1,210 (5%) were called active. 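Inactive calls also include excluded dsRNAs with several or no targets, genes unexpressed in JW18, and well A1, regardless of score.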 Entries without a mark were called inactive. A plus sign joins genes that one reagent is predicted to hit. No sequences are given here.

Assay: 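Fly genes that alter Wolbachia amount inside host cells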 (primary screen)
Cell system: Drosophila JW18 cells infected with Wolbachia
Reagent: long dsRNA against Drosophila genes, 0.25 µg dsRNA per well of a 384-well plate
Timing: 5 days
Challenge: cells persistently infected with Wolbachia before knock-down; no added drug
Read-out: 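Imaged fluorescence in situ signal for Wolbachia 23S rRNA per DAPI-counted host cell, given as a robust z-score within each plate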
Reading the numbers: Wolbachia per cell robust z: higher = more Wolbachia per host cell than the plate typical
Hit rule: 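Active if absolute robust z reaches 1.5 in two or more of three replicates, leaving out multi- or no-target dsRNAs, genes unexpressed in JW18 and A1 wells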

predicted target	DRSC id	Wolbachia per cell robust z, rep 1	Wolbachia per cell robust z, rep 2	Wolbachia per cell robust z, rep 3
lambdaTry	DRSC06137	-0.196	-1.45	-2.77
dikar	DRSC09699	-0.52	-3.14	1.26
dikar	DRSC22261	-1.11	-0.486	0.108
dikar	DRSC26562	-0.166	-1.46	-1.59
Mtpbeta	DRSC04663	-0.0851	-1.39	-5.13
CG30046	DRSC06691	-3.41	1.22	-0.736
CG14294	DRSC14774	0.693	0.0983	-0.564
Aven	DRSC19693	0.42	0.12	-0.858
CG7044	DRSC16180	-1.4	-1.42	-2.76
CG14269	DRSC17912	0.752	-3.66	-1.35
CG12398	DRSC19454	-1.9	-0.139	-1.44
CG31688	DRSC02117	1.75	-0.227	1.88
CG31688	DRSC02682	-0.965	-0.524	0.46
CG31688	DRSC25211	-9.5	-2.11	-1.72
CG31688	DRSC26711	-0.00798	0.351	-0.0458
CG31522	DRSC12005	-1.53	-0.961	0.217
CG31522	DRSC29792	-5.58 (active)	-1.11	-8.14
gammaTub23C	DRSC00820	0.107	0.0104	-0.913
gammaTub23C	DRSC27651	-0.153	-0.429	0.155
gammaTub23C	DRSC38953	1.48	0.00895	0.106
CG33340	DRSC14615	-0.953	0.88	0.723
CG33340	DRSC26638	-5.38	-3.5	-3.36
Eps-15	DRSC04288	-2.68 (active)	-0.424	-3.21
mt:Cyt-b	DRSC40590	0.676	1.04	0.538
mRpL3	DRSC20100	-0.527 (active)	-1.79	-4.68
ND-B18	DRSC19947	0.39	0.284	0.411
ND-B18	DRSC27676	-6.3	0.502	-0.288
CG12684	DRSC17875	0.232	-0.97	-0.233
hpo	DRSC06065	0.873	0.471	-0.325
CG46457	DRSC41440	-0.291	-2.17	-0.809
Hrb87F	DRSC16708	0.633	1.28	0.582
Hrb87F	DRSC29600	0.296	0.571	-3.37
Pka-R1	DRSC11674	1.09	2.63	0.406
Pka-R1	DRSC11875	-2.02	0.0953	-1.43
Pka-R1	DRSC25205	-0.0604	-1.31	0.128
Pka-R1	DRSC40828	0.607	-0.902	1.37
Prat2	DRSC09692	-0.185	-0.222	-0.24
lncRNA:roX2	DRSC22237	1.16	1.13	0.784
lncRNA:roX2	DRSC27049	0.798	0.161	1.25
hrm	DRSC04853	-4.45	-0.369	-0.221
ORY	DRSC22883	-0.173	-0.685	-0.493
CG14692	DRSC14915	0.801	-0.587	0.0637
CG43347	DRSC23007	-0.429 (active)	-1.61	-6.12
CG43347	DRSC23170	0.444	0.539	-3.13
CG43347	DRSC25782	-1.39	-0.745	0.361
CG43347	DRSC29367	-1.17	-3.63	0.309
CG43155	DRSC19642	0.248	0.0254	-0.838
CG43155	DRSC19777	-1.5	0.557	0.545
CG10730	DRSC02102	1.64	-0.962	0.655
CG10730	DRSC24841	-0.218	-0.297	-1.77
CG8468	DRSC07190	0.0236	-0.276	0.016
CG8468	DRSC26347	0.631	0.312	-0.772
CG11076	DRSC17197	1.15	0.447	0.978
CG34284	DRSC14773	1.27	-2.34	0.739
Arp3	DRSC09669	-4.52 (active)	0.307	-7.78
Arp3	DRSC29666	0.247	0.363	-0.387
CG32857 + CG33502 + CG32500	DRSC20817	0.532	-0.356	-9.16
TTLL5	DRSC14181	-0.000478	-0.609	-0.49
Grip	DRSC18395	0.461	-1.09	0.303
Grip	DRSC26610	-0.0812	1.28	1.05
CG14830	DRSC08876	-0.0731	-0.258	-0.612
E(spl)m3-HLH	DRSC23160	1.11	0.856	0.825
E(spl)m3-HLH	DRSC28511	-0.467	0.877	0.401
CG3502	DRSC04381	-0.0777	0.87	-2.99
LManV	DRSC03223	0.516	-0.655	0.345
LManV	DRSC24176	0.632	1.41	1.71
gem	DRSC06093	-0.466	-1.14	-0.557
gem	DRSC06847	0.562	-1.2	-1.36

Entries listed so far whose gene name starts with N or n:
predicted target	DRSC id	Wolbachia per cell robust z, rep 1	Wolbachia per cell robust z, rep 2	Wolbachia per cell robust z, rep 3
ND-B18	DRSC19947	0.39	0.284	0.411
ND-B18	DRSC27676	-6.3	0.502	-0.288
